Only a part is listed here, and it is no random draw. Active and inactive are the calls of the source. No stated cut-off is given here; in the data, active means activity change below about -65%; inconclusive means mostly about -30% to -63%; inactive means weaker than that.
Tested on: CtBP / adenovirus E1A interaction (AlphaScreen)
Experiment: qHTS Assay for Inhibitors of the CtBP/E1A Interaction
Conditions: AlphaScreen GST-E1A/His-CtBP binding, 1536-well; stronger effect = lower value
In short: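 In 5 uL wells, 23 nL compound meets equimolar GST-E1A and His-CtBP (5X stock 125 nM each) for 2 h, 37 °C. Beads (5X, 50 ug/mL) then 1 h, 37 °C, dark.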
On the % scale 0 is the no-effect control and ±100 the full control effect.

**Q.** For `Cc1ccccc1OP(=O)(Nc1ccccn1)Oc1ccccc1C`, which activity change is on record?
**A.** inactive: -0.623%

**Q.** Which activity change does the source give for `CC(NC(=O)COC(=O)C(O)(c1ccccc1)c1ccccc1)c1ccccc1` (stereo not drawn) here?
**A.** inactive: 11.9%

**Q.** For `CC(=O)NC(SC(=S)N(CC(C)C)CC(C)C)C(Cl)(Cl)Cl` (stereo not drawn), which activity change is on record?
**A.** inactive: 5.95%

**Q.** How did the activity change turn out when `Cc1c([N+](=O)[O-])cc([N+](=O)[O-])c(Br)c1[N+](=O)[O-]` was run?
**A.** inactive: 3.73%

**Q.** How did the activity change turn out when `COC(=O)c1cc2c(s1)N=C(c1ccccc1)N(C)P2(=O)N1CCOCC1` (stereo not drawn) was run?
**A.** inactive: 3.99%

**Q.** How did the activity change turn out when `CCN(CC)CCCOC(=O)C(O)(c1ccccc1)C1CCCCC1` (stereo not drawn) was run?
**A.** inactive: 1.67%

**Q.** With `CCC(=O)N1C2C3N(C(=O)CC)C1C1N(C(=O)CC)C(C(N1C(=O)CC)N3C(=O)CC)N2C(=O)CC` as the molecule, how does the activity change read?
**A.** inactive: 0.194%

**Q.** Which activity change does the source give for `O=C(OC1CN2CCC1CC2)c1ccccc1` (stereo not drawn) here?
**A.** inactive: -8.87%

**Q.** Which activity change does the source give for `CCOC(=O)c1ccc(NP(C)(=O)Oc2ccc(F)cc2)cc1` (stereo not drawn) here?
**A.** inactive: 10.6%

**Q.** For `O=P1(N(CCCl)CCCl)OCCC2CCCCN21` (stereo not drawn), which activity change is on record?
**A.** inactive: -1.44%

**Q.** `COc1ccc(OP(C)(=O)Nc2ccc(SC(F)(F)F)cc2)cc1` (stereo not drawn) was tested. Which activity change did it give?
**A.** inactive: 1.52%

**Q.** For `CCNC(=S)/N=C(\N)N[N+](=O)[O-]`, which activity change is on record?
**A.** inactive: 14.2%

**Q.** With `Cc1ccc(NP(=O)(Oc2cccc(C)c2)Oc2cccc(C)c2)nc1` as the molecule, how does the activity change read?
**A.** inactive: 6.86%

**Q.** `Nc1ccc([As](=O)(O)c2ccc([N+](=O)[O-])cc2)cc1` was tested. Which activity change did it give?
**A.** inactive: 4%

**Q.** Which activity change does the source give for `C(Cc1nn[nH]n1)Cc1nn[nH]n1` here?
**A.** inactive: 3.39%

**Q.** `Cc1c(C(c2ccc3c(c2)OCO3)c2c(C)n(C)n(-c3ccccc3)c2=O)c(=O)n(-c2ccccc2)n1C.O=[N+]([O-])c1cc([N+](=O)[O-])c(O)c([N+](=O)[O-])c1` was tested. Which activity change did it give?
**A.** inactive: 9.48%

**Q.** `O=C(OC1CN2CCC1CC2)c1cccc(Cl)c1` (stereo not drawn) was tested. Which activity change did it give?
**A.** inactive: 3.91%

**Q.** For `CC(=O)NC(SC(=S)N(C)C)C(Cl)(Cl)Cl` (stereo not drawn), which activity change is on record?
**A.** inactive: -9.3%

**Q.** How did the activity change turn out when `O=[N+]([O-])c1ccc(OP2(=O)COCCO2)cc1` (stereo not drawn) was run?
**A.** inactive: -1.7%

**Q.** How did the activity change turn out when `O=[N+]([O-])c1ncn(CCn2cnc([N+](=O)[O-])n2)n1` was run?
**A.** inactive: 4.53%

**Q.** How did the activity change turn out when `Cc1cc(-c2cccc3ccccc23)c(C)cn1.O=[N+]([O-])c1cc([N+](=O)[O-])c(O)c([N+](=O)[O-])c1` was run?
**A.** inactive: 3.39%

**Q.** How did the activity change turn out when `O=[As](O)(c1ccccc1)c1ccc(O)cc1` was run?
**A.** inactive: 16.5%

**Q.** `C[C@H]1OP(=O)(Oc2ccccc2)[C@H](O)[C@H](O)[C@H]1N=[N+]=[N-]` (stereo partly drawn) was tested. Which activity change did it give?
**A.** inactive: 2.53%

**Q.** `CN(C)CCOC(=O)C(O)(c1ccccc1)C1CCCCC1` (stereo not drawn) was tested. Which activity change did it give?
**A.** inactive: -3.17%

**Q.** Which activity change does the source give for `O=P(Nc1nc2ccccc2s1)(c1ccccc1)c1ccccc1` here?
**A.** inactive: 0.121%

**Q.** How did the activity change turn out when `COc1ccc(NP(C)(=O)Oc2ccccc2OC)cc1` (stereo not drawn) was run?
**A.** inactive: 0.838%

**Q.** For `COc1ccc(N)c([N+](=O)[O-])c1[N+](=O)[O-]`, which activity change is on record?
**A.** inactive: -5.21%

**Q.** Which activity change does the source give for `COc1ccc(OP(C)(=O)Nc2cccc(Br)c2)cc1` (stereo not drawn) here?
**A.** inactive: -0.822%

**Q.** For `O=P(Nc1ccccn1)(c1ccc(Br)cc1)c1ccc(Br)cc1`, which activity change is on record?
**A.** inactive: 0%

**Q.** `CN(C)C1(CNC(=O)c2ccc(Cl)c(S(N)(=O)=O)c2)CCCCC1` was tested. Which activity change did it give?
**A.** inactive: 4.76%

**Q.** Which activity change does the source give for `Cc1ccccc1NP(C)(=O)Nc1ccccc1C` here?
**A.** inactive: 22.1%

**Q.** Which activity change does the source give for `O=[N+]([O-])c1cc([N+](=O)[O-])c(C(F)(F)F)c([N+](=O)[O-])c1O` here?
**A.** inactive: 6.06%

**Q.** `CP(=O)(Nc1ccc2c(c1)OCCO2)Oc1ccccc1` (stereo not drawn) was tested. Which activity change did it give?
**A.** inactive: -2.64%

**Q.** How did the activity change turn out when `CCOP(C)(=S)SCC(=O)NC(C)(CC)C(=O)O` (stereo not drawn) was run?
**A.** inactive: 7.73%

**Q.** Which activity change does the source give for `c1nnnn1CCn1cnnn1` here?
**A.** inactive: 0.77%

**Q.** With `CP(=O)(Nc1ccc(SC(F)(F)F)cc1)Oc1ccc(F)cc1` (stereo not drawn) as the molecule, how does the activity change read?
**A.** inactive: 10.1%

**Q.** `CC(C)C(=O)NC(Sc1ccccc1)C(Cl)(Cl)Cl` (stereo not drawn) was tested. Which activity change did it give?
**A.** inactive: 1.01%

**Q.** Which activity change does the source give for `O=P(Nc1nccs1)(c1ccccc1)c1ccccc1` here?
**A.** inactive: -0.658%

Source: PubChem BioAssay AID651724 (National Center for Advancing Translational Sciences (NCATS), 2012)
